Where “and” joins values, the source holds several entries; their conditions need not be identical. Equal values may be shown once.
Tested on: single-cycle replicable HIV NL4-3 virions in Hela cells
Assay: single cycle HIV-1 replication assay (inhibition of p24 expression, capture ELISA)
Assay type: cell-based
Details: Selectivity Index, CC50/EC50 ratio
Procedure: The anti-HIV-1 activity of target compounds was evaluated in a single cycle replication assay evaluated in our laboratory and reported previously. In this assay, the single-cycle replicable HIV NL4-3 virions (200 ng p24) were inoculated concurrently with compounds in different concentrations to the Hela cells. The inhibition rate (%) of p24 expression was measured by capture ELISA (Biomerieux, France) 72 hours after inoculation. Percentage inhibition of p24 expression in treated culture was calculated as inhibition rate of p24 (%). The XTT (sodium3-[1(phenylaminocarbonyl)-3,4-tetrazolium]-bis(4-methoxy-6-nitro)benzene sulfonic acid) proliferation assay was conducted to evaluate the cellular toxicity according to the kit instructions. The cytotoxic concentration that reduced the number of viable cells by 50% (CC50) was calculated after the determination of p24 load in the HIV-1 replication assay plates ([37]-[40]).
Fourteen 1,2-benzothiazine-3-carboxamide 1,1-dioxide derivatives containing different substituents at N-2 positions (12 and 13a-m) were synthesized and evaluated to inhibit the single-cycle HIV replication inhibition HeLa cell culture. Cytotoxicity of compounds was also tested in the same cell line to ensure the safety of compounds. Raltegravir was used as a positive control. Anti-HIV activity and cytotoxicity of compounds were expressed as EC50 and CC50, respectively. Selectivity Index (SI) was calculated using CC50/EC50 ratio.

Row | SMILES | SI
1 | NC(=O)C1=C(O)c2ccccc2S(=O)(=O)N1Cc1cccc(F)c1 [Compound 13k, 2-(3-Fluorobenzyl)-4-hydroxy-2H-benzo[e][1,2]thiazine-3-carboxamide 1,1-dioxide] | 9.2
2 | NC(=O)C1=C(O)c2ccccc2S(=O)(=O)N1CC1CCCCC1 [Compound 13b, 2-(Cyclohexylmethyl)-4-hydroxy-2H-benzo[e][1,2]thiazine-3-carboxamide 1,1-dioxide] | 4
3 | CN1C(C(=O)Nc2ccccn2)=C(O)c2ccccc2S1(=O)=O [Piroxicam, piroxicam, reference compound] | 7.5
4 | NC(=O)C1=C(O)c2ccccc2S(=O)(=O)N1Cc1ccc([N+](=O)[O-])cc1 [Compound 13m, 4-Hydroxy-2-(4-nitrobenzyl)-2H-benzo[e][1,2]thiazine-3-carboxamide 1,1-dioxide] | > 26 and 26
5 | Cc1ccccc1CN1C(C(N)=O)=C(O)c2ccccc2S1(=O)=O [Compound 13e, 4-Hydroxy-2-(2-methylbenzyl)-2H-benzo[e][1,2]thiazine-3-carboxamide 1,1-dioxide] | 11.8
6 | NC(=O)C1=C(O)c2ccccc2S(=O)(=O)N1 [Compound 12, 4-hydroxy-2H-benzo[e][1,2]thiazine-3-carboxamide 1,1-dioxide] | 9.0
7 | NC(=O)C1=C(O)c2ccccc2S(=O)(=O)N1Cc1ccccc1F [Compound 13j, 2-(2-Fluorobenzyl)-4-hydroxy-2H-benzo[e][1,2]thiazine-3-carboxamide 1,1-dioxide] | 19.4
8 | COc1cccc(CN2C(C(N)=O)=C(O)c3ccccc3S2(=O)=O)c1 [Compound 13f, 4-Hydroxy-2-(3-methoxybenzyl)-2H-benzo[e][1,2]thiazine-3-carboxamide 1,1-dioxide] | 12.8
9 | NC(=O)C1=C(O)c2ccccc2S(=O)(=O)N1Cc1ccccc1 [Compound 13c, 2-Benzyl-4-hydroxy-2H-benzo[e][1,2]thiazine-3-carboxamide 1,1-dioxide] | 13.3

Reference: PMC8653674, “Design, Synthesis, Docking Study and Biological Evaluation of 4-Hydroxy-2H-benzo[e][1,2]thiazine-3-carboxamide 1,1-dioxide Derivatives as Anti-HIV Agents” (Iranian Journal of Pharmaceutical Research : IJPR, 2021)
